Pooled drug test results. Numbers come from NIAID ChemDB, via PubChem.

Common to all: tests in culture; species: Mycobacterium avium complex; measure: MIC50

Rows are shuffled and stem from different studies. An empty or dashed field is not shown. MIC50, MIC90 and the like: level of inhibition, or share of isolates inhibited.

| SMILES | strain | value |
|---|---|---|
| NC[C@@H]1O[C@H](O[C@H]2[C@@H](O)[C@H](O[C@@H]3[C@@H](O)[C@H](N)C[C@H](N)[C@H]3O[C@H]3O[C@H](CO)[C@@H](O)[C@H](O)[C@H]3N)O[C@@H]2CO)[C@H](N)[C@@H](O)[C@@H]1O | 32 isolates | 8 µg/mL |
| NCC[C@H](O)C(=O)N[C@@H]1C[C@H](N)[C@@H](O[C@H]2O[C@H](CN)[C@@H](O)[C@H](O)[C@H]2O)[C@H](O)[C@H]1O[C@H]1O[C@H](CO)[C@@H](O)[C@H](N)[C@H]1O | 20 strains | 4 µg/mL |
| CC1COc2c(N3CCN(C)CC3)c(F)cc3c(=O)c(C(=O)O)cn1c23 | 101 isolates | 8 µg/mL |
| NC1CCN(c2nc3c(cc2F)c(=O)c(C(=O)O)cn3-c2ccc(F)cc2F)C1 | 16 isolates | >100 µg/mL |
| CN(C)CC1CCN(c2c(F)cc3c(=O)c(C(=O)O)cn(C4CC4)c3c2F)C1 | 14 strains | 0.5 µg/mL |
| CO[C@H]1/C=C/O[C@@]2(C)Oc3c(C)c(O)c4c(O)c(c5c(c4c3C2=O)NC2(CCN(CC(C)C)CC2)N=5)=NC(=O)/C(C)=C\C=C\[C@H](C)[C@H](O)[C@@H](C)[C@@H](O)[C@@H](C)[C@H](OC(C)=O)[C@@H]1C | 20 strains | 0.4 µg/mL |
| CC(C)N=c1cc2n(-c3ccc(Cl)cc3)c3ccccc3nc-2cc1Nc1ccc(Cl)cc1 | 37 strains | 4 µg/mL |
| CC[C@H]1OC(=O)[C@H](C)[C@@H](O[C@H]2C[C@@](C)(OC)[C@@H](O)[C@H](C)O2)[C@H](C)[C@@H](O[C@@H]2O[C@H](C)C[C@H](N(C)C)[C@H]2O)[C@](C)(O)C[C@@H](C)CN(C)[C@H](C)[C@@H](O)[C@]1(C)O | 28 strains | 16 µg/mL |
| C[C@@H]1CN(c2c(F)c(N)c3c(=O)c(C(=O)O)cn(C4CC4)c3c2F)C[C@H](C)N1 | 20 strains | 0.2 µg/mL |
| CC[C@H]1OC(=O)[C@H](C)[C@@H](O[C@H]2C[C@@](C)(OC)[C@@H](O)[C@H](C)O2)[C@H](C)[C@@H](O[C@@H]2O[C@H](C)C[C@H](N(C)C)[C@H]2O)[C@](C)(OC)C[C@@H](C)C(=O)[C@H](C)[C@@H](O)[C@]1(C)O | 28 strains | 2 µg/mL |
| CCn1cc(C(=O)O)c(=O)c2cc(F)c(N3CCNCC3)cc21 | 16 isolates | 50 µg/mL |
| CCCN1CCN(c2cc(=O)c3nc4c(oc3c2)c2c(=O)c3c(O)c(C)c5c(c34)=C(O)[C@@](C)(O/C=C/[C@H](OC)[C@@H](C)[C@@H](OC(C)=O)[C@H](C)[C@H](O)[C@H](C)[C@@H](O)[C@@H](C)/C=C/C=C(/C)C(=O)N2)O5)CC1 | 18 strains | 0.1 µg/mL |
| CCCCCCCCCCCCOC(=O)c1cc(O)c(O)c(O)c1 | 32 isolates | 128 µg/mL |
| CO[C@H]1/C=C/O[C@@]2(C)Oc3c(C)c(O)c4c(O)c(c5c(c4c3C2=O)NC2(CCN(CC(C)C)CC2)N=5)=NC(=O)/C(C)=C\C=C\[C@H](C)[C@H](O)[C@@H](C)[C@@H](O)[C@@H](C)[C@H](OC(C)=O)[C@@H]1C | 37 strains | 0.25 µg/mL |
| CCC1CCN(c2c(F)cc3c(=O)c(C(=O)O)cn(C4CC4)c3c2F)C1 | 14 strains | 2 µg/mL |
| CCn1cc(C(=O)O)c(=O)c2cc(F)c(N3CCNCC3)cc21 | 22 strains | 4 µg/mL |
| CO[C@H]1/C=C/O[C@@]2(C)Oc3c(C)c(O)c4c(O)c(c(/C=N/N5CCN(C)CC5)c(O)c4c3C2=O)NC(=O)/C(C)=C\C=C\[C@H](C)[C@H](O)[C@@H](C)[C@@H](O)[C@@H](C)[C@H](OC(C)=O)[C@@H]1C | 52 strains | 6.25 µg/mL |
| CN(C)c1cc(NC(=O)CNC(C)(C)C)c(O)c2c1C[C@H]1C[C@H]3[C@H](N(C)C)C(=O)C(C(N)=O)=C(O)[C@@]3(O)C(=O)C1=C2O | 11 strains | >32 µg/mL |
| CN(C)C1CCN(c2c(F)cc3c(=O)c(C(=O)O)cn(C4CC4)c3c2F)C1 | 14 strains | 0.5 µg/mL |
| CCCCN1CCN(c2cc3c(cc2F)c(=O)c(C(=O)O)cn3-c2ccc(F)cc2F)CC1 | 14 strains | 4 µg/mL |
| O=C(O)c1cn(C2CC2)c2c(F)c(N3CCNCC3)c(F)cc2c1=O | 14 strains | 1 µg/mL |
| CC[C@@H](CO)NCCN[C@@H](CC)CO |  | 1.7 µg/mL |
| CNn1cc(C(=O)O)c(=O)c2cc(F)c(N3CCN(C)CC3)cc21 | 19 strains | 12.5 µg/mL |
| C[C@@H]1CN(c2c(F)c(N)c3c(=O)c(C(=O)O)cn(C4CC4)c3c2F)C[C@H](C)N1 | 20 strains | 1.56 µg/mL |
| CC(C)N=c1cc2n(-c3ccc(Cl)cc3)c3ccccc3nc-2cc1Nc1ccc(Cl)cc1 | 20 strains | <0.125 µg/mL |
| CO[C@H]1/C=C/O[C@@]2(C)Oc3c(C)c(O)c4c(=O)c(c5oc6cc(N7CCN(CC(C)C)CC7)cc(=O)c6nc5c4c3=C2O)NC(=O)/C(C)=C\C=C\[C@H](C)[C@H](O)[C@@H](C)[C@@H](O)[C@@H](C)[C@H](OC(C)=O)[C@@H]1C | 20 strains | 0.1 µg/mL |
| CC1CN(c2c(F)cc3c(=O)c(C(=O)O)cn(C4CC4)c3c2F)C(C)CN1 | 14 strains | 2 µg/mL |
| CCN1CCN(c2cc3c(cc2F)c(=O)c(C(=O)O)cn3C2CC2)CC1 | 14 strains | 2 µg/mL |
| CC(=O)NC[C@H]1CN(c2ccc(-c3ccc(-c4nnnn4C)nc3)c(F)c2)C(=O)O1 | 13 isolates | 4 µg/mL |
| CC[C@H]1OC(=O)[C@H](C)[C@@H](O[C@H]2C[C@@](C)(OC)[C@@H](O)[C@H](C)O2)[C@H](C)[C@@H](O[C@@H]2O[C@H](C)C[C@H](N(C)C)[C@H]2O)[C@](C)(O)C[C@@H](C)CN(C)[C@H](C)[C@@H](O)[C@]1(C)O | 20 strains | 32 µg/mL |
| Clc1ccc2c(c1)nc1cc(Nc3ccccc3)c(=NC3CCCCC3)cc-1n2-c1ccccc1 |  | 0.1 µg/mL |
| CN1CCN(CCCN=c2cc3n(-c4ccc(Cl)cc4)c4ccccc4nc-3cc2Nc2ccccc2)CC1 | 10 srtains | 1.43 µg/mL |
| CNC1CCCN(c2c(F)cc3c(=O)c(C(=O)O)cn(C4CC4)c3c2OC)C1 | 16 isolates | 12.5 µg/mL |
| Cc1cc(=O)c(C(=O)NC(C(=O)N[C@@H]2C(=O)N3C(C(=O)O)=C(CSc4nnnn4C)CS[C@H]23)c2ccc(O)cc2)c[nH]1 |  | 22.7 µg/mL |
| O=C(O)c1cn(C2CC2)c2c(F)c(N3CCS(=O)CC3)c(F)cc2c1=O | 14 strains | 1 µg/mL |
| CCN(CC)CCN=c1cc2n(-c3ccc(Cl)cc3)c3ccccc3nc-2cc1Nc1ccc(Cl)cc1 |  | 0.02 µg/mL |
| C[C@@H](O)[C@H]1C(=O)N2C(C(=O)O)=C(SCCOC(N)=O)S[C@H]12 | 22 strains | 2 µg/mL |
| COC(C(N)=NC1C(=O)N2C(C(=O)[O-])=C(C[N+]3(C)C=CC=C3)CSC12)c1cnc(N)s1 |  | 17.2 µg/mL |
| NC1CCN(c2c(F)cc3c(=O)c(C(=O)O)c4n(c3c2F)CCS4)C1 | 14 strains | ≥32 µg/mL |
| Cc1c(F)c(N2CCNC(C)C2)cc2c1c(=O)c(C(=O)O)cn2C1CC1 | 16 isolates | 6.25 µg/mL |
| CC[C@H]1OC(=O)[C@H](C)[C@@H](O[C@H]2C[C@@](C)(OC)[C@@H](O)[C@H](C)O2)[C@H](C)[C@@H](O[C@@H]2O[C@H](C)C[C@H](N(C)C)[C@H]2O)[C@](C)(OC)C[C@@H](C)C(=O)[C@H](C)[C@@H](O)[C@]1(C)O | 37 strains | 0.5 µg/mL |
| CC1CN(c2cc3c(cc2F)c(=O)c(C(=O)O)cn3-c2ccc(F)cc2F)CC(C)N1 | 14 strains | 2 µg/mL |
| CC[C@@H](C)N1CCN(c2cc(=O)c3nc4c(oc3c2)c2c(=O)c3c(O)c(C)c5c(c34)=C(O)[C@@](C)(O/C=C/[C@H](OC)[C@@H](C)[C@@H](OC(C)=O)[C@H](C)[C@H](O)[C@H](C)[C@@H](O)[C@@H](C)/C=C/C=C(/C)C(=O)N2)O5)CC1 | 18 strains | 0.1 µg/mL |
| CO/N=C(/C(=O)N[C@@H]1C(=O)N2C(C(=O)O)=C(COC(N)=O)CS[C@H]12)c1ccco1 |  | 17.3 µg/mL |
| CN1CCCC1CCN=c1cc2n(-c3ccc(Cl)cc3)c3ccccc3nc-2cc1Nc1ccccc1 | 10 srtains | 1.28 µg/mL |
| CN(C)c1ccc(O)c2c1C[C@H]1C[C@H]3[C@H](N(C)C)C(=O)C(C(N)=O)=C(O)[C@@]3(O)C(=O)C1=C2O | 11 strains | 64 µg/mL |
| COc1ccc2c(c1)c(CC(=O)O)c(C)n2C(=O)c1ccc(Cl)cc1 | 32 isolates | >128 µg/mL |
| CCN=c1cc2n(-c3ccc(Cl)cc3)c3ccccc3nc-2cc1Nc1ccc(Cl)cc1 |  | 0.09 µg/mL |